# Values of other authors in article PMC9238359.
# Chains of the proteins cited; added tags and fusions are not shown. Residues count along the entry.
# UniProt Q16623, 1-265: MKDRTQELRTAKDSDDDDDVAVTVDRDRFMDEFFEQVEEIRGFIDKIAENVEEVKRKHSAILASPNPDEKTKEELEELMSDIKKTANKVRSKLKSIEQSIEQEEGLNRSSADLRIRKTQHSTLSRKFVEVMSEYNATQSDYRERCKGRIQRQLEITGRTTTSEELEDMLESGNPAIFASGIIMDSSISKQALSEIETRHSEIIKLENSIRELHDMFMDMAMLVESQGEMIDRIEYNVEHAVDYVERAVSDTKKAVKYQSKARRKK
# UniProt Q16623, 1-20: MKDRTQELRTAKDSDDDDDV
# UniProt Q16623, 25-265: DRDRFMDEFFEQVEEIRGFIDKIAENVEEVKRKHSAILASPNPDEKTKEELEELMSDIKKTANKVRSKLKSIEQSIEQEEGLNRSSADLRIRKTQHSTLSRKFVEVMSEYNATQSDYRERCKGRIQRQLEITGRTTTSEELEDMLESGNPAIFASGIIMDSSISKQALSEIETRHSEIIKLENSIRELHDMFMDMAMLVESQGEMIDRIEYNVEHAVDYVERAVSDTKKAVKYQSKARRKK
# pKd: −log10 of the molar value.
# What was measured:
# Experiment in all cases: ITC
# STX1 soluble = STX1 soluble (UniProt Q16623)
# STX1 N-terminal peptide = STX1 N-terminal peptide (UniProt Q16623)
# [1] = biological target: STX1 soluble lacking N-terminal peptide (UniProt Q16623)
substance,measurement,setting,value
Munc18-1 (from UniProt P61764),pKd,STX1 soluble,8.82
same,pKd,STX1 N-terminal peptide,4.24
same,pKd,[1],8.09
